Positions count from the first letter of the chain named. Human monoclonal antibodies against the spike receptor-binding domain (heavy:light variable regions). IC50 against pseudoviruses bearing the spike of naturally observed variants; lower = stronger; >10 µg/ml means not reached at the top dose. No active / inactive call. The stated detection limit is 0.0005 µg/ml; values near or below 0.001 µg/ml lie at the floor of the assay.
B1: BD56-533 (protein)
chain 1: QVQLMESGGGVVQPGRSLTISCSASGFTFSAYAMHWVRQAPGKGLEWVAVILDDGKNKLYADSGKGRFTISRDNPKNTLYLQMNSLRPEDTAVYYCARDQSLGMSTVTLFDQWGQGTLVTVSS
chain 2: DIQMTQSPSSLSASVGDRVTITCRASQSIRTYLNWYQQKPGKAPKLLIYEASRLQSGVPSRFSGSGSGTDFTLTINSLQPEDFATYFCQQSYNTPPWTFGQGTKVEI
B2: BD56-526 (protein)
chain 1: QVHLVQSGAEVKRPGASVKVSCKASGYTFTSYGISWVRQAPGQGLEWMGWISTDNGNTVYTHKLRGRVTMTTDRSTSTAFMELRTLTSDDTAVYYCAREGGVTVAYFDYWGQGTLVTVSS
chain 2: EIVLTQSPDFQSVTPKEKVTITCRASESIGTSLHWYQQKPDQSPKVLIKDASQSFSGVPSRFSGSGSGTDFTLTINSLEAEDAATYYCHQSSSLPYTFGQGTKLEIK
B3: BD56-539 (protein)
chain 1: QVQLVQSGAEVKKTGSSVKVSCRASGGTFSSHPISWVRQAPGQGLEWVGRIIPIVGIADYAQKLQGRVTLTADKSTSAAYMELSSLRSEDTAVYYCARDQGYSGSGSSYFFDPWGQGTLVTVSS
chain 2: QSVLTQPPSVSGAPGQRVTISCTGGNSNIGAGYDVHWYQQLPGTAPKLLIYVNSNRPSGVPDRFSGSKSGTSASLAITGLQAEDEADYYCQSYDSSLSASVFGGGTKLTVL
B4: BD56-546 (protein)
chain 1: QVQLVQSGAEVKKPGSSVKVSCKASGGTFSSYTISWVRQAPGQGLEWMGRIITMLGIANYAEKFQGRVTITADKSTSTAYMELSSLRSEDTAVYYCARIGQQLLSDWYFDLWGRGTLVTVSS
chain 2: B3 chain 2 with V3A, G25S, D34A, V52G, A99E, S100E, G104T, L108V
B5: BD56-519 (protein)
chain 1: QKHLVQSGPEVKKPGTSVKVSCKASGFTFSSSAVQWVRQARGQRLEWIGWIVVGSGQTEFVQKFQERATMTRDMSTSTVYMELSRLRSEDTAVYYCAAPYCGPTNCHDGFDIWGQGTMVTVSS
chain 2: EIVLTQSPGTLSLSPGERATLFCRASQSIRSNYFAWYQQKPGQAPTLLIYGPSSRATGIPDRFSGSGSGTDFSLTIRRLEPEDFAVYYCQQYGNSPWTFGQGTKVEIK
B6: BD56-537 (protein)
chain 1: EVQLVESGGGLVQPGRSLRLSCAVSEFTFDDYAMHWVRQAPGKGLEWVSGISWNGGIIGYADSVKGRFTISRDNAKNSLYLQMISLRPEDTAWYYCAKAVWFKELSEYSFDYWGQGTLVTVSS
chain 2: QSALTQPASVSGSPGQSITISCTGTSSDVGGYNYVSWYQQHPGKAPKLMIYDVNKRPSGISNRFSGSKSGNTASLTISGLQAEDETDYYCSSYTSDSTVVFGGGTKLTVL

Columns and labels:
Experiment in all cases: pseudovirus neutralization IC50; higher = weaker neutralization
[1] = molecular target: SARS-CoV-2 Omicron BA.1 spike pseudovirus
Method: (§1)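 Single-round VSV luciferase pseudovirus mixed with antibody dilutions for 1 h and put on Huh-7 cells for about a day; IC50 from the dose curve.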

[2] = molecular target: SARS-CoV-2 Omicron BA.2 spike pseudovirus
Method: as §1

[3] = molecular target: SARS-CoV-2 Omicron BA.2.75 spike pseudovirus
Method: as §1

[4] = molecular target: SARS-CoV-2 Omicron BA.5 spike pseudovirus
Method: as §1

[5] = molecular target: SARS-CoV-2 Omicron BQ.1.1 spike pseudovirus
Method: as §1

[6] = molecular target: SARS-CoV-2 Omicron XBB spike pseudovirus
Method: as §1

[7] = molecular target: SARS-CoV-2 early D614G spike pseudovirus
Method: as §1

Binder	pseudovirus neutralization IC50 [1]	pseudovirus neutralization IC50 [2]	pseudovirus neutralization IC50 [3]	pseudovirus neutralization IC50 [4]	pseudovirus neutralization IC50 [5]	pseudovirus neutralization IC50 [6]	pseudovirus neutralization IC50 [7]
B1	8.32 mg/L	8.24 mg/L	> 10 mg/L	9.87 mg/L	> 10 mg/L	> 10 mg/L	6.21 mg/L
B2	> 10 mg/L	8.51 mg/L	> 10 mg/L	8.18 mg/L	> 10 mg/L	> 10 mg/L	2.46 mg/L
B3	0.455 mg/L	0.466 mg/L	0.796 mg/L	0.59 mg/L	4.65 mg/L	5.55 mg/L	0.277 mg/L
B4	0.49 mg/L	0.443 mg/L	0.37 mg/L	> 10 mg/L	> 10 mg/L	> 10 mg/L	0.565 mg/L
B5	0.0476 mg/L	0.0379 mg/L	0.00613 mg/L	> 10 mg/L	> 10 mg/L	> 10 mg/L	0.00917 mg/L
B6	0.036 mg/L	0.0164 mg/L	0.0284 mg/L	8.24 mg/L	> 10 mg/L	> 10 mg/L	0.0247 mg/L

Reference: the supplement of paper PMC9931576
